{"source": "paper PMC12383022", "about": "“Discovery of a Novel Antimicrobial Peptide from Paenibacillus sp. Na14 with Potent Activity Against Gram-Negative Bacteria and Genomic Insights into Its Biosynthetic Pathway” (Antibiotics, 2025)", "assay": "Circular dichroism, secondary structure estimation (CONTINLL)", "assay_type": "physicochemical", "conditions": "CD, peptide 0.50 mg/mL, 25 °C", "note": "Where no end group is shown, it is not given here.", "data": [{"sequence": "LALLVVVKVLKYVV [Na14 peptide]", "values": [{"measurement": "Random Coil content", "setting": "50 mM SDS", "value": 43.9, "unit": "%"}, {"measurement": "Turn content", "setting": "50 mM SDS", "value": 15.7, "unit": "%"}, {"measurement": "Random Coil content", "setting": "deionized H2O", "value": 56.8, "unit": "%"}, {"measurement": "Turn content", "setting": "deionized H2O", "value": 23.7, "unit": "%"}, {"measurement": "α-Helix content", "setting": "deionized H2O", "value": 1.7, "unit": "%"}, {"measurement": "β-Strand content", "setting": "deionized H2O", "value": 17.8, "unit": "%"}]}]}
